According to article PMC6270420, “Antibacterial Activity of Salicylanilide 4-(Trifluoromethyl)benzoates” (Molecules, 2013):

What was measured:
Mtb. Praha 131 (XDR-TB) = assay type: cell-based, Mycobacterium tuberculosis; details: SI = IC50/MIC100
Staphylococcus sp. = assay: Selectivity index IC50 (HepG2)/MIC for Staphylococcus sp.; assay type: cell-based; details: SI = IC50/MIC100
MDR-TB strains = assay type: cell-based, Mycobacterium tuberculosis; details: SI = IC50/MIC100
[1] = test system: Mycobacterium tuberculosis 331/88 (H37Rv); assay: Antimycobacterial MIC micromethod, Šula's medium; assay type: cell-based; details: SI = IC50/MIC100, MICs of salicylanilides SAL taken from ref 23
[2] = 14 d (second column, as printed)

| Structure (SMILES) | SI for XDR-TB strain (Mtb. Praha 131 (XDR-TB); 14 d (first column)) | SI for XDR-TB strain (Mtb. Praha 131 (XDR-TB); [2]) | SI for Staphylococcus sp. (Staphylococcus sp.; 24 h) | SI for Staphylococcus sp. (Staphylococcus sp.; 48 h) | SI for MDR-TB strains (MDR-TB strains; 14 d) | SI for MDR-TB strains (MDR-TB strains; 21 d) | SI for Mtb. H37Rv 331/88 ([1]; 14 d) | SI for Mtb. H37Rv 331/88 ([1]; 21 d) |
| --- | --- | --- | --- | --- | --- | --- | --- | --- |
| O=C(Oc1ccc(Cl)cc1C(=O)Nc1ccc(Cl)c(Cl)c1)c1ccc(C(F)(F)F)cc1 [1e] | 1.57 | 1.57 | 6.39 | 3.19 | 1.57–3.13 | 0.78–1.57 | 3.13 | 3.13 |
| O=C(Oc1cc(Cl)ccc1C(=O)Nc1ccc(Cl)c(Cl)c1)c1ccc(C(F)(F)F)cc1 [1f] | 4.46 | 2.23 | – | – | 2.23–4.46 | 2.23 | 4.46 | 2.23 |
| O=C(Oc1ccc(Cl)cc1C(=O)Nc1cccc(Br)c1)c1ccc(C(F)(F)F)cc1 [1g] | 2.63 | 1.32 | – | – | 1.32–2.63 | 1.32 | 2.63 | 1.32 |
| O=C(Oc1cc(Cl)ccc1C(=O)Nc1ccc(Br)cc1)c1ccc(C(F)(F)F)cc1 [1j] | 4.82 | 2.41 | 9.84 | 4.92 | – | – | 2.41 | 1.21 |
| O=C(Oc1ccc(Cl)cc1C(=O)Nc1ccc(C(F)(F)F)cc1)c1ccc(C(F)(F)F)cc1 [1o, 4-chloro-2-[4-(trifluoromethyl)phenylcarbamoyl]phenyl 4-(trifluoromethyl)benzoate] | 2.66 | 1.33 | 0.34 | 0.17 | 1.33–2.66 | 1.33–2.66 | 1.33 | 1.33 |
| O=C(Oc1cc(Cl)ccc1C(=O)Nc1ccc(C(F)(F)F)cc1)c1ccc(C(F)(F)F)cc1 [1p] | – | – | 3.61 | 1.81 | – | – | 0.89 | 0.89 |
| O=C(Oc1ccc(Br)cc1C(=O)Nc1ccc(C(F)(F)F)cc1)c1ccc(C(F)(F)F)cc1 [1r] | 4.06 | 2.03 | – | – | 2.03–4.06 | 1.02–2.03 | 2.03 | 2.03 |
| O=C(Nc1ccc(Cl)c(Cl)c1)c1cc(Cl)ccc1O [SAL-1] | – | – | – | – | – | – | 0.21 | 0.10 |
| O=C(Nc1ccc(Cl)c(Cl)c1)c1ccc(Cl)cc1O [SAL-2] | – | – | – | – | – | – | 0.45 | 0.45 |
| O=C(Nc1ccc(Br)cc1)c1ccc(Cl)cc1O [SAL-4] | – | – | – | – | – | – | 0.5 | 0.5 |
| O=C(Nc1ccc(C(F)(F)F)cc1)c1cc(Cl)ccc1O [SAL-5, 5-chloro-2-hydroxy-N-[4-(trifluoromethyl)phenyl]benzamide] | – | – | – | – | – | – | 0.18 | 0.18 |
| O=C(Nc1ccc(C(F)(F)F)cc1)c1ccc(Cl)cc1O [SAL-6] | – | – | – | – | – | – | 0.17 | 0.17 |
| O=C(Nc1ccc(C(F)(F)F)cc1)c1cc(Br)ccc1O [SAL-7, 5-Bromo-2-hydroxy-N-[4-(trifluoromethyl)phenyl]benzamide] | – | – | – | – | – | – | 1.67 | 1.67 |

Like-named read-outs stand apart in the source and are kept apart here.
